Compound potency records, mixed from different reports. Data source: NIAID ChemDB in PubChem.

Common to all: host cell toxicity; cell line: CEM; read-out: CC50

Rows are shuffled and stem from different studies. Blank or dashed fields: not listed here. CCn is the concentration with n% toxicity to the cells. Two numbers with a dash give a range or band.

compound | method | value
O=c1[nH]c(=O)n([C@H]2C=C[C@@H](OCP(=O)(O)O)O2)cc1I | - | >100 µg/mL
Cc1c(Cl)ccc2cc(/C=C/C(=O)c3ccc(Cl)cc3)c(Cl)nc12 | MTT | 31.09 µM
O=[N+]([O-])c1ccc(C2ON=C(c3ccccc3)N2C23CC4CC(CC(C4)C2)C3)cc1 | - | 170 µM
O=C(c1cc2cc3c(cc2[nH]1)OCO3)N1CCN(C(=O)c2cc3cc4c(cc3[nH]2)OCO4)CC1 | XTT | >200 µM
CC(C)CS[C@H]1C[C@@H](n2cnc3c(N)ncnc32)[C@H](O)[C@@H]1O | - | 156 µg/mL
O=c1ccn(C[C@H]2C[C@H]2CO)c(=O)[nH]1 | - | >100 µM
CC(C)(C)[Si](C)(C)OCC1O[C@@H](NC(=O)NC(=O)c2ccccc2)C(O[Si](C)(C)C(C)(C)C)C12OS(=O)(=O)C=C2N | - | 10 µM
O=C(c1ccc(F)cc1)c1ccc2[nH]c(=O)oc2c1 | - | 35 µg/mL
O=C(NCCc1ccccc1)c1cc2cc(O)c(O)cc2[nH]1 | XTT | 24 µM
O=C1c2ccccc2C(=O)N1C/C=C\Cn1ccc(=O)[nH]c1=O | cell count | >50 µM
O=C(NCCc1ccccc1)c1cc2cc3c(cc2[nH]1)OCO3 | XTT | >200 µM
CC1=NC(=O)C(CC(=O)NCc2ccc(F)cc2)C(C)=N1 | MTT | >115.3 µM
CCc1cn([C@H]2C=C[C@@H](OCP(=O)(O)O)O2)c(=O)nc1N | - | >100 µg/mL
Nc1ccc(C(=O)c2ccc3[nH]c(=O)oc3c2)cc1 | - | 108 µg/mL
COc1ccc(NC(=O)/C(C#N)=C/c2ccc(O)c(O)c2)cc1O | - | 10.9 µM
COc1ccc(C(=O)/C=C/c2cc3ccc(Cl)c(C)c3nc2Cl)cc1 | MTT | 31.9 µM
CC(=O)Oc1ccc(COP(=O)(OCc2ccc(OC(C)=O)cc2)OC[C@@H]2C=C[C@H](n3cc(C)c(=O)[nH]c3=O)O2)cc1 | - | 58 µM
N#C/C(=C\c1ccccc1)S(=O)(=O)/C(C#N)=C/c1ccc(O)c(O)c1 | - | 25.7 µM
CN[C@H](CC(C)C)C(=O)N[C@H]1C(=O)N[C@@H](CC(N)=O)C(=O)N[C@H]2C(=O)N[C@H]3C(=O)N[C@H](C(=O)N[C@H](C(=O)O)c4cc(O)c(CN5CCN(Cc6ccc(-c7ccccc7)cc6)CC5)c(O)c4-c4cc3ccc4O)[C@H](O)c3ccc(cc3)Oc3cc2cc(c3O)Oc2ccc(cc2Cl)[C@H]1O | - | >500 µM
O=C1c2ccccc2C(=O)N1CC1OC1CCl | cell count | >50 µM
O=C(NCCCN1CCN(CCCNC(=O)c2cc3cc(O)c(O)cc3[nH]2)CC1)c1cc2cc(O)c(O)cc2[nH]1 | XTT | 88 µM
COC(=O)CC(OP(=O)(OC[C@@H]1C=C[C@H](n2cc(C)c(=O)[nH]c2=O)O1)OC(CC(=O)OC)c1ccc(OC(C)=O)cc1)c1ccc(OC(C)=O)cc1 | - | 19 µM
CCCNC(=O)CN(C)C(=O)c1ccc(Sc2ccc(F)cc2)c([N+](=O)[O-])c1 | MTT | 70 µM
c1ccc(C2=NOC(c3ccccc3)N2C23CC4CC(CC(C4)C2)C3)cc1 | - | >200 µM
N#C/C(=C\c1ccc(O)c(O)c1)C(=O)Nc1cccc(C(=O)O)c1 | - | 36.5 µM
CC(C)(C)[Si](C)(C)OCC1OC(N=[N+]=[N-])C(O[Si](C)(C)C(C)(C)C)C12OS(=O)(=O)C=C2N | - | 200 µM
O=C(O)c1ccccc1SCc1cc(O)ccc1O | - | 33.3 µM
O=C(NCCCCCCNC(=O)c1cc2cc3c(cc2[nH]1)OCO3)c1cc2cc3c(cc2[nH]1)OCO3 | XTT | >200 µM
N#C/C(=C\c1ccc(O)c(O)c1)C(=O)NCCCNC(=O)/C(C#N)=C/c1ccc(O)c(O)c1 | - | 40.9 µM
O=C(NCCCCCCNC(=O)c1cc2cc(O)c(O)cc2[nH]1)c1cc2cc(O)c(O)cc2[nH]1 | XTT | 26 µM
Cc1c(Cl)ccc2cc(/C=C/C(=O)c3cccc(Br)c3)c(Cl)nc12 | MTT | 47.01 µM
NC/C=C\Cn1cnc2c(N)ncnc21 | cell count | 5.7 µM
O=C(c1ccc2[nH]c(=O)oc2c1)c1ccccc1F | - | 10 µg/mL
Cc1cn(C[C@H]2C[C@H]2[C@H](O)CO)c(=O)[nH]c1=O | - | >100 µM
Cc1c(Cl)ccc2cc(/C=C/C(=O)c3ccccc3Br)c(Cl)nc12 | MTT | 30.4 µM
Nc1ncnc2c1ncn2[C@@H]1C[C@H](O)[C@@H](O)[C@H]1O | - | 27 µg/mL
Nc1ccn([C@H]2CC[C@@H](CO)O2)c(=O)n1 | - | 2.5–5.1 µg/mL
Cc1cn([C@H]2CC[C@@H](COC(=O)c3ccccc3)O2)c(=O)[nH]c1=O | - | >625 µM
Nc1ccc([C@H]2CC(=O)[C@@H](CO)O2)c(F)c1 | - | >500 µM
CC(C)(C)[Si](C)(C)OCC1O[C@@H](NC(N)=O)C(O[Si](C)(C)C(C)(C)C)C12OS(=O)(=O)C=C2N | - | 250 µM
Nc1nc2c(ncn2CCOCP(=O)(O)O)c(=O)[nH]1 | neutral red | 2.4 µM
CC#C[C@@]1(CO)C=C[C@H](n2cc(C)c(=O)[nH]c2=O)O1 | cell count | >100 µM
O=c1[nH]cnc2c1ncn2C[C@H]1C[C@H]1CO | - | >100 µM
CN(CC(=O)Nc1ccc(F)cc1)C(=O)COC(=O)c1ccccc1SCC(=O)N1CCCC1 | MTT | >68.3 µM
O=C(NCc1ccccc1)c1cc2cc(O)c(O)cc2[nH]1 | XTT | 29 µM
CCn1cc(C(=O)O)c(=O)c2cc(F)c(N3CCN(c4ccccc4OC)CC3)c(OC(F)F)c21 | - | 24 µM
O=C(NCc1ccc(O)c(O)c1)c1cc2cc(O)c(O)cc2[nH]1 | XTT | 33 µM
O=C(OCC(=O)N1N=C2/C(=C/c3ccc(F)cc3)CCCC2C1c1ccc(F)cc1)c1cnccn1 | MTT | >65 µM
O=c1[nH]c2ccc(Cc3ccc(F)cc3)cc2o1 | - | 8 µg/mL
O=C1c2ccccc2C(=O)N1CC1OC1CBr | cell count | 9.2 µM
Brc1cccc(C2ON=C(c3ccccc3)N2C23CC4CC(CC(C4)C2)C3)c1 | - | >200 µM
Cc1ccc(Cl)cc1Nc1nc(C(F)(F)F)ccc1C(=O)NN1CCN(c2cccc(Cl)c2)CC1 | MTT | >50 µM
Fc1cccc(C2ON=C(c3ccccc3)N2C23CC4CC(CC(C4)C2)C3)c1 | - | >200 µM
N#C/C(=C\c1ccc(O)c(O)c1)C(=O)NCc1ccccc1 | - | 33.7 µM
Cc1cc(=O)c2c(O)c3c(O)cc(O)c4c5c(O)cc(O)c6c(O)c7c(=O)cc(C)c8c1c2c(c34)c(c65)c78 | - | >4 µg/mL
COc1cccc(C2ON=C(c3ccccc3)N2C23CC4CC(CC(C4)C2)C3)c1 | - | 55 µM

Repeating the first 5 entries:

O=c1[nH]c(=O)n([C@H]2C=C[C@@H](OCP(=O)(O)O)O2)cc1I ; value: >100 µg/mL
Cc1c(Cl)ccc2cc(/C=C/C(=O)c3ccc(Cl)cc3)c(Cl)nc12 ; method: MTT ; value: 31.09 µM
O=[N+]([O-])c1ccc(C2ON=C(c3ccccc3)N2C23CC4CC(CC(C4)C2)C3)cc1 ; value: 170 µM
O=C(c1cc2cc3c(cc2[nH]1)OCO3)N1CCN(C(=O)c2cc3cc4c(cc3[nH]2)OCO4)CC1 ; method: XTT ; value: >200 µM
CC(C)CS[C@H]1C[C@@H](n2cnc3c(N)ncnc32)[C@H](O)[C@@H]1O ; value: 156 µg/mL